Measured values from article PMC6028965, “Mechanism of vaccinia viral protein B14–mediated inhibition of IκB kinase β activation” (The Journal of Biological Chemistry, 2018).

Molecular target: untagged B14 protein (vaccinia virus, UniProt P24772 1-149)
Experiment: pull-down

B1: GST-IKKβ-KD-ULD M1 mutant (residues 179–197 substituted with GGGGSGGS) (domain or fragment)
chain: MSWSPSLTTQTCGAWEMKERLGTGGFGNVIRWHNQETGEQIAIKQCRQELSPRNRERWCLEIQIMRRLTHPNVVAARDVPEGMQNLAPNDLPLLAMEYCQGGDLRKYLNQFENCCGLREGAILTLLSDIASALRYLHENRIIHRDLKPENIVLQQGEQRLIHKIIDLGYAKELDQGSLGGGGSGGSKYTVTVDYWSFGTLAFECITGFRPFLPNWQPVQWHSKVRQKSEVDIVVSEDLNGTVKFSSSLPYPNNLNSVLAERLEKWLQLMLMWHPRQRGTDPTYGPNGCFKALDDILNLKLVHILNMVTGTIHTYPVTEDESLQSLKARIQQDTGIPEEDQELLQEAGLALIPDKPATQCISDGKLNEGHTLDM
B1: binds.
